Key:
[1] = system: paraoxon-induced seizures; test: Seizure severity (modified Racine scale) after paraoxon intoxication; details: isoflurane at 20 and 30 minutes after paraoxon
paraoxon intoxication = test: Behavioral observation (sedation, appearance) after brief isoflurane in paraoxon-intoxicated rats

FC(F)OC(Cl)C(F)(F)F (stereo not drawn)
seizure stage at the 24 hour time point [1]: 0 stage | duration of mild sedation after cessation of isoflurane (paraoxon intoxication; 2% 3 min then 5% 1 min at 20 or 30 minutes after paraoxon): 45 to 50 min | duration of mild sedation after cessation of isoflurane (paraoxon intoxication; 4%, 4.5% or 5% isoflurane in 100% oxygen for 5 minutes, 1 hour after paraoxon): 45 to 50 min
